Reference: PubChem BioAssay AID1259414 (Drosophila RNAi Screening Center, 2018)
Aim: 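Host factors increasing or decreasing Wolbachia levels in cultured fly cells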 (primary screen). System: Drosophila JW18 cells infected with Wolbachia. Reagent: long dsRNA against Drosophila genes, 0.25 µg dsRNA per well of a 384-well plate. Timing: 5 days. Treatment: cells persistently infected with Wolbachia before knock-down; no added drug. Detection: 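Imaged fluorescence in situ signal for Wolbachia 23S rRNA per DAPI-counted host cell, given as a robust z-score within each plate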. Reading the numbers: Wolbachia per cell robust z: higher = more Wolbachia per host cell than the plate typical. Active means: 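Hit when robust z is 1.5 or more, or -1.5 or less, in at least two of three replicates; excludes dsRNAs with several or no targets, genes not expressed in JW18 and well A1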.
The deposit covers about 24,000 reagents; below is an unselected part of those that have a named target and a result. Of all reagents, about 1,210 (5%) were called active. 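Inactive calls also include excluded dsRNAs with several or no targets, genes unexpressed in JW18, and well A1, regardless of score.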 Names joined by + are all predicted targets of the reagent.

target gene | amplicon | Wolbachia per cell robust z, rep 1 | Wolbachia per cell robust z, rep 2 | Wolbachia per cell robust z, rep 3 | activity call
Or88a (Odorant receptor 88a) | DRSC16770 | -1.04 | -0.158 | 0.21 | inactive
CG8673 | DRSC03105 | 0.355 | 0.395 | 1.08 | inactive
CG17919 | DRSC12571 | -1.84 | -6.54 | -1.17 | active
CG17919 | DRSC27860 | 0.0639 | 0.625 | 0.709 | inactive
Pop4 (POP4 ribonuclease P/MRP subunit) | DRSC10955 | -3.62 | 0.491 | 1.36 | inactive
Pop4 (POP4 ribonuclease P/MRP subunit) | DRSC29825 | -0.0504 | -0.93 | -0.609 | inactive
Or63a (Odorant receptor 63a) | DRSC08681 | 0.185 | 0.938 | 1.31 | inactive
tomboy20 | DRSC14913 | -0.993 | -0.148 | 0.12 | inactive
CG14232 | DRSC19588 | 1.28 | -2.58 | -0.624 | inactive
CG14232 | DRSC27714 | 0.787 | 1.21 | 1.22 | inactive
scra (scraps) | DRSC07679 | 1.25 | 2.87 | 1.25 | inactive
CG11857 | DRSC14411 | 0.843 | -1.49 | 0.878 | inactive
amon (amontillado) | DRSC13784 | -0.339 | 0.755 | 0.103 | inactive
amon (amontillado) | DRSC16900 | -0.398 | -2.42 | 1.06 | inactive
Desi (Desiccate) | DRSC14909 | -0.113 | 0.0239 | -0.0306 | inactive
Mco3 (Multicopper oxidase 3) | DRSC15926 | 0.513 | -2.1 | -0.881 | inactive
Hip14 (Huntingtin-interacting protein 14) | DRSC10570 | -2.1 | 0.579 | -0.392 | inactive
msl-2 (male-specific lethal 2) | DRSC00829 | 1.07 | 0.884 | 1.36 | inactive
msl-2 (male-specific lethal 2) | DRSC28208 | 0.348 | -0.0313 | 0.487 | inactive
cwo (clockwork orange) | DRSC17072 | 0.686 | 0.168 | 1.47 | inactive
cwo (clockwork orange) | DRSC25219 | 1.08 | 0.184 | 2.33 | inactive
CG15676 | DRSC04267 | 0.675 | 0.499 | 0.762 | inactive
CG15676 | DRSC27015 | -2.03 | 0.513 | -0.794 | inactive
CG10702 | DRSC02097 | 0.961 | 0.738 | 0.546 | inactive
tst (twister) | DRSC14212 | 0.217 | 0.00961 | -0.279 | inactive
Herc4 (HECT and RLD domain containing E3 ubiquitin ligase 4) | DRSC08631 | -0.199 | -2.29 | -0.555 | inactive
snz (snazarus) | DRSC17969 | 0.369 | 0.214 | 0.732 | inactive
CG9784 | DRSC20210 | 0.32 | 0.759 | -0.124 | inactive
CG9784 | DRSC28204 | 0.125 | -0.167 | 0.483 | inactive
CG10737 | DRSC05999 | -0.879 | 0.598 | 1.03 | inactive
CG10737 | DRSC26112 | -0.5 | -0.103 | -6.92 | inactive
Elba2 (Early boundary activity 2) | DRSC00731 | 0.202 | 0.655 | 0.535 | inactive
Elba2 (Early boundary activity 2) | DRSC28543 | -0.723 | 0.592 | -1.25 | inactive
Ir67a (Ionotropic receptor 67a) | DRSC09897 | -0.365 | -0.377 | -0.589 | inactive
tRNA:Leu-CAA-2-3 (transfer RNA:Leucine-CAA 2-3) | DRSC13633 | -0.637 | 0.321 | 0.243 | inactive
Mcm2 (Minichromosome maintenance 2) | DRSC16734 | 0.558 | 0.994 | -0.368 | inactive
Mcm2 (Minichromosome maintenance 2) | DRSC26612 | -0.155 | -0.112 | 0.614 | inactive
CG31740 | DRSC01619 | -0.435 | -0.639 | -0.593 | inactive
CG18324 | DRSC06721 | -0.747 | -2.35 | -0.275 | inactive
CG18324 | DRSC26600 | -0.321 | -0.114 | -0.783 | inactive
ntc (nutcracker) | DRSC08166 | 0.799 | 0.571 | -0.114 | inactive
Syx8 (Syntaxin 8) | DRSC10402 | 0.138 | 0.396 | 1.07 | inactive
Syx8 (Syntaxin 8) | DRSC22498 | -0.0134 | -1.82 | -0.534 | inactive
Syx8 (Syntaxin 8) | DRSC27747 | 0.43 | -0.38 | -1.17 | inactive
babo (baboon) | DRSC07581 | -0.0193 | 0.264 | 0.267 | inactive
babo (baboon) | DRSC40774 | 0.398 | 0.426 | -0.0836 | inactive
CG33981 + fab1 | DRSC07412 | -0.709 | -1.52 | -1.85 | inactive
CG4611 | DRSC10434 | -0.224 | -0.0426 | -0.335 | inactive
CG4611 | DRSC26382 | 0.842 | -0.595 | -0.665 | inactive
CG4611 | DRSC39046 | 1.54 | -0.122 | 0.358 | inactive
mthl5 (methuselah-like 5) | DRSC16155 | 0.817 | 1.46 | -0.557 | inactive
CG31827 + CG18478 | DRSC01958 | 0.554 | -4.73 | 1.15 | inactive
Syt12 (Synaptotagmin 12) | DRSC19359 | -0.584 | -1.41 | -2.17 | inactive
CG31176 | DRSC15038 | 0.351 | -0.827 | 0.551 | inactive
CG31176 | DRSC16021 | -3.57 | 0.226 | 0.0784 | inactive
CG33282 | DRSC00422 | -0.836 | 1.23 | 1.29 | inactive
ich (ichor) | DRSC14448 | 0.511 | 0.162 | 0.332 | inactive
ich (ichor) | DRSC29647 | 0.694 | 0.904 | -0.0388 | inactive
CG10096 + CG10097 | DRSC14189 | -0.208 | -0.186 | -0.0415 | inactive
CG10096 + CG10097 | DRSC14190 | 0.459 | -6.14 | -3.42 | inactive
CG2150 | DRSC23444 | 1.04 | 0.005 | -0.152 | inactive
msb1l | DRSC03572 | -0.738 | -0.931 | -0.698 | inactive
msb1l | DRSC26438 | 0.0875 | 0.645 | 0.196 | inactive
BBS9 (Bardet-Biedl syndrome 9) | DRSC04257 | -0.518 | -5.27 | -0.345 | inactive
BBS9 (Bardet-Biedl syndrome 9) | DRSC27789 | -0.488 | 0.0617 | 0.0748 | inactive
Membrin | DRSC10448 | 0.158 | -0.7 | 0.743 | inactive
pen-2 (presenilin enhancer) | DRSC05722 | 2.24 | 0.396 | 1.13 | inactive
CG15580 | DRSC12266 | -0.909 | 0.00176 | 0.234 | inactive
CG15580 | DRSC24180 | -0.4 | 2.37 | -7.3 | inactive

4 neighbouring entries already listed, quoted:
target gene | amplicon | Wolbachia per cell robust z, rep 1 | Wolbachia per cell robust z, rep 2 | Wolbachia per cell robust z, rep 3 | activity call
babo (baboon) | DRSC40774 | 0.398 | 0.426 | -0.0836 | inactive
CG33981 + fab1 | DRSC07412 | -0.709 | -1.52 | -1.85 | inactive
CG4611 | DRSC10434 | -0.224 | -0.0426 | -0.335 | inactive
CG4611 | DRSC26382 | 0.842 | -0.595 | -0.665 | inactive
